Laboratory results from PMC6967409 (Frontiers in Chemistry, 2020).

Assays:
[1] = system: HepG2 cells; assay: HepG2 cytotoxicity bioluminescence assay (CellTiterGlo, ATP); assay type: cell-based, human; settings: selectivity index
Experimental: Briefly, HepG2-CD81 cells were seeded into 1,536 well plates containing 50 nL of test and control compounds diluted into DMSO. […] Next, 2 μL of luciferin reagent (Promega BrightGlo) was added to each well and luciferase activity was detected using a Perkin Elmer Envision plate reader. […] In parallel, plates were processed without sporozoites for HepG2 toxicity measurements.
In continuation of the transmission blocking theme, it is important to establish activities against liver stage parasites. […] This assay uses ultra-high-throughput screening methods optimized for a 1536-well format and a HepG2 human hepatoma cell line. […] To establish selectivity of the compounds for the parasite in the liver stage of infection, cytotoxicity was determined by measuring bioluminescence from the reaction between free ATP of compound-treated, uninfected hepatocytes and a luciferase reporter system.

[2] = system: HepG2 cells; assay: Cytotoxicity, Cytoselect LDH cytotoxicity assay kit; assay type: cell-based, human; settings: selectivity index
Experimental: (§1) Cytotoxicity (EC50) was determined against Chinese hamster ovarian (CHO) using a 3-(4,5-dimethylthiazol-2-yl)-2,5-diphenyltetrazolium bromide (MTT) assay and hepatocellular carcinoma cells (HepG2) using the Cytoselect LDH cytotoxicity assay kit (Cell Biolabs).

[3] = system: Chinese hamster ovarian (CHO) cells; assay: Cytotoxicity, MTT assay; assay type: cell-based; settings: selectivity index
Experimental: as §1

[4] = system: P. falciparum NF54 late stage gametocytes (>90% stage IV and V); set-up: method as in Coertzen et al. (2018); settings: ref Coertzen et al. (2018); cited from earlier work

Structure (SMILES)	SI (EC50 HepG2/IC50 NF54) [2]	SI (EC50 CHO/IC50 NF54 proliferative assay) [3]	further results
O=C1C(O)=C([C@H]2CC[C@H](c3ccc(Cl)cc3)CC2)C(=O)c2ccccc21 [Atovaquone]			SI (EC50 HepG2/IC50 P. berghei sporozoites) [1]: >100
CCCCS(=O)(=O)N1CCN([C@@H]2O[C@@H]3O[C@@]4(C)CC[C@H]5[C@H](C)CC[C@@H]([C@H]2C)[C@@]35OO4)CC1 [Compound 13]	1007.4		
CC(=O)Nc1ccc(S(=O)(=O)N2CCN([C@@H]3O[C@@H]4O[C@@]5(C)CC[C@H]6[C@H](C)CC[C@@H]([C@H]3C)[C@@]46OO5)CC2)cc1 [Compound 15]	723		
C[C@H]1[C@H](N2CCN(S(=O)(=O)c3cccc(C(F)(F)F)c3)CC2)O[C@@H]2O[C@@]3(C)CC[C@H]4[C@H](C)CC[C@@H]1[C@@]24OO3 [Compound 16]	126.7		
C[C@H]1[C@H](N2CCN(S(=O)(=O)c3cccc(F)c3)CC2)O[C@@H]2O[C@@]3(C)CC[C@H]4[C@H](C)CC[C@@H]1[C@@]24OO3 [Compound 17]	205.5	6,322	
C[C@H]1[C@H](N2CCN(S(=O)(=O)c3ccc(C(F)(F)F)cc3)CC2)O[C@@H]2O[C@@]3(C)CC[C@H]4[C@H](C)CC[C@@H]1[C@@]24OO3 [Compound 18]	15.63	11,071	
C[C@H]1[C@H](N2CCN(S(=O)(=O)c3ccc(F)cc3)CC2)O[C@@H]2O[C@@]3(C)CC[C@H]4[C@H](C)CC[C@@H]1[C@@]24OO3 [Compound 19]	164.1		
C[C@H]1[C@H](N2CCN(C(=O)Nc3ccc(C(C)(C)C)cc3)CC2)O[C@@H]2O[C@@]3(C)CC[C@H]4[C@H](C)CC[C@@H]1[C@@]24OO3 [Compound 22]	329.4	1,561	
C[C@H]1[C@H](N2CCN(C(=O)Nc3ccc(C(F)(F)F)cc3)CC2)O[C@@H]2O[C@@]3(C)CC[C@H]4[C@H](C)CC[C@@H]1[C@@]24OO3 [Compound 23]	292.3	119,354	SI (EC50 HepG2/IC50 P. berghei sporozoites) [1]: 66.0
C[C@H]1[C@H](N2CCN(C(=O)Nc3ccc(F)cc3)CC2)O[C@@H]2O[C@@]3(C)CC[C@H]4[C@H](C)CC[C@@H]1[C@@]24OO3 [Compound 24]		156,923	SI (EC50 HepG2/IC50 P. berghei sporozoites) [1]: 48.9
C[C@H]1[C@H](NS(=O)(=O)N2CCN(c3ccccn3)CC2)O[C@@H]2O[C@@]3(C)CC[C@H]4[C@H](C)CC[C@@H]1[C@@]24OO3 [Compound 29]	40.1		
C[C@H]1[C@H](NS(=O)(=O)N2CCN(c3ccc(C(F)(F)F)cn3)CC2)O[C@@H]2O[C@@]3(C)CC[C@H]4[C@H](C)CC[C@@H]1[C@@]24OO3 [Compound 30]	94.3	10,393	
CC1CCC2C(C)C(N3CCNCC3)OC3OC4(C)CCC1C32OO4 (stereo not shown) [DHA-piperazine 9]			Fold change preference ratio: EG to LG [4]: 0.47; Fold change preference ratio: LG to EG [4]: 2.1
COc1ccc(C[C@H](N)C(=O)N[C@H]2[C@@H](O)[C@H](n3cnc4c(N(C)C)ncnc43)O[C@@H]2CO)cc1 [Puromycin]			SI (EC50 HepG2/IC50 P. berghei sporozoites) [1]: 5.15
